# Measurements reported in US20240043505A1.
# B1: Nb20 (VHH)
# VHH: QVQLVESGGGLVQAGGSLRLSCAVSGAGAHRVGWFRRAPGKEREFVAAIGASGGMTNYLDSVKGRFTISRDNAKNTIYLQMNSLKPQDTAVYYCAARDIETAEYIYWGQGTQVTVSS
# Target: SARS-CoV-2 RBD E484K mutant (SARS-CoV-2), P0DTC2
# Conditions: remark: other sources report otherwise
binder,measurement,value
B1,binding affinity fold change relative to RBD WT,< -1000 fold
